# This is a selection; strong and weak results do not stand in their true shares. The source made the active and inactive calls. Cut-off read from the data, not from the text of the source: active = normalized absorbance mostly below about 85% (no sharp cut-off); inactive = mostly above about 86%.
# Test system: Vaccinia virus DNA polymerase (E9) processive complex
# Assay: vaccinia E9 polymerase processive synthesis inhibitors, primary screen, biochemical, absorbance (AID 493162)
# Conditions: in vitro processive DNA synthesis, absorbance read-out; active compounds read low; concentration not given here
row,SMILES,normalized absorbance
1,O=P1(Nc2ccccn2)COc2ccccc2OC1,inactive: 94.5%
2,Cc1ccc(C(=O)OC2CN3CCC2CC3)cc1 (stereo not drawn),inactive: 108%
3,CC1(C)COP(=S)(N(C2=NCCC2)c2ccccc2)OC1,inactive: 95.6%
4,Cc1cc(C)cc(OP(C)(=O)Nc2ccc(OC(C)C)cc2)c1 (stereo not drawn),inactive: 100%
5,CC1(C)Nc2ccccc2OP1(=O)c1ccccc1 (stereo not drawn),inactive: 83.7%
6,COc1cc(-n2cnnn2)ccc1-n1cnnn1,inactive: 97.8%
7,Cc1cccc(OCC(=O)OC2CN3CCC2CC3)c1 (stereo not drawn),inactive: 99.8%
8,O=C(OC1CN2CCC1CC2)c1ccc(Cl)cc1 (stereo not drawn),inactive: 101%
9,O=C(OC1CN2CCC1CC2)C12CC3CC(CC(C3)C1)C2 (stereo not drawn),inactive: 99.1%
10,CN(C)P1(=O)Nc2ccccc2S1 (stereo not drawn),inactive: 101%
11,CC1=Nc2ccc(C(F)(F)F)cc2C1(C)C,inactive: 97%
12,O=C(O)CCC(=O)N=S(c1ccccc1)c1ccccc1.O=[N+]([O-])c1cc([N+](=O)[O-])c(O)c([N+](=O)[O-])c1,inactive: 92%
13,CCn1cccc/c1=N\P1(=S)OCCO1,inactive: 99.8%
14,CCc1nc2c(n1)c1c(non1O)c1c2no[n+]1[O-],inactive: 100%
15,CP(=O)(Nc1ccc(Cl)cc1)Oc1ccc(F)cc1 (stereo not drawn),inactive: 100%
16,CN(C(=O)Cc1ccc(Cl)c(Cl)c1)[C@H]1CCCC[C@@H]1N1CCCC1,inactive: 100%
17,CCOP(=Nc1nc2ccccc2n2nnnc12)(OCC)OCC,inactive: 100%
18,CP(=O)(Nc1ccccn1)Oc1ccccc1 (stereo not drawn),inactive: 100%
19,O=P1(Nc2nc3ccc(Cl)cc3s2)COc2ccccc2O1 (stereo not drawn),inactive: 85.4%
20,O=C(OC1/C(=C/c2ccccc2F)N2CCC1CC2)c1ccccc1 (stereo not drawn),inactive: 107%
21,COc1cc2c(cc1NP(C)(=O)Oc1ccccc1)oc1ccccc12 (stereo not drawn),inactive: 100%
22,CC(=O)OC1(C#N)CN2CCC1CC2 (stereo not drawn),inactive: 97.9%
23,CC(=O)OC1CN2CCC1C(c1ccccc1)C2 (stereo not drawn),inactive: 106%
